Pooled drug test results. Numbers come from NIAID ChemDB, via PubChem.

Shared fields: growth or infection tests; species: Candida albicans; read-out: MBC

An empty or dashed field is not shown.

smiles	strain	result
CCOC[N+](C)(C)Cc1cc(N=Nc2ccc(C)cc2)ccc1O	-	1376 µM
COc1ccc(C2=CC(c3cc(OC)c(OC)c(OC)c3)NC(=S)N2C)cc1OC	DSM 70014	50 µg/mL
CCCCCCCCCCCC[N+](C)(C)COCCC	ATCC 10231	155 µM
COc1ccc(C2=CC(c3cc(OC)c(OC)c(OC)c3)NC(=S)N2c2ccccc2)cc1OC	DSM 70014	200 µg/mL
CCCCCCCCCCCC[N+](C)(C)COC(CCC)CCC	ATCC 10231	26.4 µM
CCCCCCCCCCCOC[N+](C)(C)Cc1cc(N=Nc2ccc(C)cc2)ccc1O	-	1021 µM
CCCCCCCCOC[n+]1cccc(NCn2nnc3ccccc32)c1	ATCC 10231	>1284 µM
CCCCCCCCCCCCSC[N+](C)(C)CCCCCCCCCCCC	ATCC 10231	1080 µM
CCCOC[N+](C)(C)Cc1cc(N=Nc2ccc(C)cc2)ccc1O	-	662 µM
COc1ccc(NC(=O)CSC2NC(c3ccc(OC)c(OC)c3)=CC(c3cc(OC)c(OC)c(OC)c3)N2)cc1	DSM 70014	100 µg/mL
CCCCCCCCCCCOC[N+](C)(C)Cc1cc(N=Nc2ccc(Cl)cc2)ccc1O	-	980 µM
CCCCCCCCCCCC[N+](C)(C)COC1CCCC1	ATCC 10231	144 µM
CCCCCCCCCCCOC[n+]1cccc(NCn2cnc3ccccc32)c1	ATCC 10231	70 µM
COc1ccc(C2=NN(c3ccc([N+](=O)[O-])cc3)C(c3cc(OC)c(OC)c(OC)c3)C2)cc1OC	DSM 70014	200 µg/mL
CCCCCCCCCOC[n+]1cccc(NCNc2ccc[n+](COCCCCCCCCC)c2)c1	ATCC 10231	27 µM
CCCCCCCCCCCC[N+](C)(C)CSCCCCCC	ATCC 10231	263 µM
Cc1ccc(N=Nc2ccc(O)c(C[N+](C)(C)COC3CCC(C)CC3)c2)cc1	-	143 µM
CCCCCCCOC[n+]1cccc(NCn2cnc3ccccc32)c1	ATCC 10231	2574 µM
COc1cc(C2CC(c3ccc4c(c3)OCO4)=NN2C=O)cc(OC)c1OC	DSM 70014	25 µg/mL

The last 2 rows once more:

CCCCCCCOC[n+]1cccc(NCn2cnc3ccccc32)c1 ; strain: ATCC 10231 ; result: 2574 µM
COc1cc(C2CC(c3ccc4c(c3)OCO4)=NN2C=O)cc(OC)c1OC ; strain: DSM 70014 ; result: 25 µg/mL

Lines come from different laboratories, so protocols vary.